PubChem BioAssay AID624099 – ICCB-Longwood, 2012
Screen: 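Human genes that papillomavirus E2 requires to repress the HPV18 LCR promoter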 (primary screen). System: human C33A cervical carcinoma cells (HPV-negative) stably expressing BPV1 E2 and an HPV18 LCR luciferase reporter. Knock-down reagent: siRNA pool against human genes, 40 nM. Timing: 72 h. Measurement: 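Per-well luciferase luminescence, z-scored on each plate against the plate mean and SD with control wells left out, then averaged across three replicate plates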. Direction: mean z-score and z-score: higher = stronger reporter signal, weaker E2 silencing. Hit rule: 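Hit if mean z-score reaches 2 and two or more of three replicate z-scores also reach 2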.
The whole screen tested about 21,000 reagents; this is an unselected part. In the full data, 497 (2.4%) were called active. 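Higher z means weaker E2 silencing; only reporter increases were scored, and knock-downs that hurt cell survival may mask genuine repressor factors.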 The numbers tell different reagents against one gene apart.

gene | reagent | mean z-score | z-score, replicate A | z-score, replicate B | z-score, replicate C | Outcome
KPNA6 (karyopherin subunit alpha 6) | 1 | 1.24 | 1.36 | 1.3 | 1.08 | inactive
PRSS1 (serine protease 1) | 1 | 0.37 | 0.46 | 0.3 | 0.34 | inactive
DMBX1 (diencephalon/mesencephalon homeobox 1) | 1 | -0.23 | -0.11 | -0.19 | -0.39 | inactive
KCTD11 (potassium channel tetramerization domain containing 11) | 1 | 0.56 | 0.75 | 0.62 | 0.3 | inactive
ZFP92 (ZFP92 zinc finger protein) | 1 | 0.61 | 1.16 | 0.22 | 0.44 | inactive
OPRM1 (opioid receptor mu 1) | 1 | 0.39 | 0.57 | 0.13 | 0.48 | inactive
RFC5 (replication factor C subunit 5) | 1 | -0.65 | -0.49 | -0.67 | -0.77 | inactive
SLC38A11 | 1 | -1.33 | -1.75 | -1.26 | -1 | inactive
PSMD2 (proteasome 26S subunit ubiquitin receptor, non-ATPase 2) | 1 | -1.99 | -2.03 | -1.97 | -1.98 | inactive
RPL32P36 (ribosomal protein L32 pseudogene 36) | 1 | -2.25 | -2.09 | -2.44 | -2.21 | inactive
LINC01547 (long independently transcribed non-coding RNA 1547) | 1 | 0.37 | 0.28 | 0.43 | 0.4 | inactive
LINC01547 (long independently transcribed non-coding RNA 1547) | 2 | 1.4 | 1.34 | 1.36 | 1.5 | inactive
MINDY3 (MINDY lysine 48 deubiquitinase 3) | 1 | -0.28 | -0.32 | -0.4 | -0.13 | inactive
CELF6 (CUGBP Elav-like family member 6) | 1 | 0.77 | 0.58 | 1.16 | 0.56 | inactive
LRRC8E (leucine rich repeat containing 8 VRAC subunit E) | 1 | -0.68 | -0.7 | -0.77 | -0.58 | inactive
LIMCH1 (LIM and calponin homology domains 1) | 1 | -1.25 | -1.32 | -0.78 | -1.64 | inactive
LOC387869 | 1 | 0.23 | 0.43 | 0.37 | -0.11 | inactive
CNGA4 (cyclic nucleotide gated channel subunit alpha 4) | 1 | 0.14 | 0.16 | 0.27 | -0.03 | inactive
ZNF337 (zinc finger protein 337) | 1 | 0.1 | 0.03 | 0.32 | -0.05 | inactive
LOC285995 (retired record) | 1 | 0.32 | -0.15 | 0.15 | 0.98 | inactive
POLR2H (RNA polymerase II, I and III subunit H) | 1 | 0.13 | 0.01 | 0.22 | 0.17 | inactive
CFAP92 (cilia and flagella associated protein 92 (putative)) | 1 | 1.28 | 0.98 | 1.24 | 1.62 | inactive
CD99P1 (CD99 molecule pseudogene 1) | 1 | 0.04 | 0.23 | 0.16 | -0.27 | inactive
RARS2 (arginyl-tRNA synthetase 2, mitochondrial) | 1 | 1.39 | 1.38 | 1.36 | 1.42 | inactive
IMPACT (impact RWD domain protein) | 1 | -0.31 | -0.19 | -0.19 | -0.56 | inactive
LOC391705 (retired record) | 1 | -0.45 | -0.13 | -0.82 | -0.4 | inactive
FKBP1B (FKBP prolyl isomerase 1B) | 1 | 0.25 | 0.07 | 0.48 | 0.21 | inactive

Part of the list above, showing only “z-score, replicate C”.
LIMCH1 (LIM and calponin homology domains 1): -1.64
LOC387869: -0.11
CNGA4 (cyclic nucleotide gated channel subunit alpha 4): -0.03
ZNF337 (zinc finger protein 337): -0.05
LOC285995 (retired record): 0.98
POLR2H (RNA polymerase II, I and III subunit H): 0.17

Further reagents follow:
gene | reagent | mean z-score | z-score, replicate A | z-score, replicate B | z-score, replicate C | Outcome
ATP11C (ATPase phospholipid transporting 11C (ATP11C blood group)) | 1 | 0.26 | 0.42 | 0.27 | 0.07 | inactive
UGT2B15 (UDP glucuronosyltransferase family 2 member B15) | 1 | 0.42 | 0.34 | 0.39 | 0.53 | inactive
KRT80 (keratin 80) | 1 | 0.82 | 1.29 | 0.78 | 0.39 | inactive
ACP4 (acid phosphatase 4) | 1 | -0.16 | 0 | -0.32 | -0.17 | inactive
ARHGEF28 (Rho guanine nucleotide exchange factor 28) | 1 | -0.09 | -0.03 | -0.24 | 0 | inactive
ST3GAL2 (ST3 beta-galactoside alpha-2,3-sialyltransferase 2) | 1 | -0.31 | -0.32 | -0.34 | -0.26 | inactive
RALGAPA2 (Ral GTPase activating protein catalytic subunit alpha 2) | 1 | -0.32 | -0.46 | -0.17 | -0.33 | inactive
BBS4 (Bardet-Biedl syndrome 4) | 1 | 1.2 | 1.12 | 1.18 | 1.29 | inactive
BRME1 (break repair meiotic recombinase recruitment factor 1) | 1 | 0.05 | 0.06 | 0.24 | -0.14 | inactive
STX18 (syntaxin 18) | 1 | 0.23 | 0.41 | 0.19 | 0.09 | inactive
RPRM (reprimo, TP53 dependent G2 arrest mediator homolog) | 1 | 0.17 | 0.13 | 0.4 | -0.02 | inactive
DUS2 (dihydrouridine synthase 2) | 1 | -0.33 | -0.37 | -0.46 | -0.18 | inactive
RASL11B (RAS like family 11 member B) | 1 | -0.35 | -0.47 | -0.03 | -0.54 | inactive
KLF11 (KLF transcription factor 11) | 1 | 0.68 | 0.77 | 0.44 | 0.83 | inactive
EBNA1BP2 (EBNA1 binding protein 2) | 1 | -2.24 | -2.34 | -2.1 | -2.29 | inactive
TAMALIN (trafficking regulator and scaffold protein tamalin) | 1 | -0.26 | 0.1 | -0.4 | -0.5 | inactive
NPHP1 (nephrocystin 1) | 1 | 0.21 | 0.15 | 0.13 | 0.35 | inactive
CACNA1F (calcium voltage-gated channel subunit alpha1 F) | 1 | 1.29 | 1.23 | 1.09 | 1.53 | inactive
TMEM132E-DT (TMEM132E divergent transcript) | 1 | -0.42 | -0.93 | -0.08 | -0.26 | inactive
TMEM163 (transmembrane protein 163) | 1 | -0.15 | 0 | -0.27 | -0.19 | inactive
NMBR (neuromedin B receptor) | 1 | -0.23 | -0.4 | -0.47 | 0.2 | inactive
LOC728743 (zinc finger domain-containing protein LOC728743) | 1 | -0.13 | -0.09 | -0.28 | -0.03 | inactive
ZNF513 (zinc finger protein 513) | 1 | 0.71 | 0.74 | 0.58 | 0.79 | inactive
CPAP (centrosome assembly and centriole elongation protein) | 1 | -0.11 | -0.08 | 0 | -0.26 | inactive
SLC25A17 | 1 | -0.93 | -0.63 | -1.14 | -1.01 | inactive
SULF2 (sulfatase 2) | 1 | -1.02 | -1.57 | -0.93 | -0.56 | inactive
PACSIN3 (protein kinase C and casein kinase substrate in neurons 3) | 1 | -0.39 | -0.28 | -0.27 | -0.62 | inactive
CNOT1 (CCR4-NOT transcription complex subunit 1) | 1 | 0.95 | 0.76 | 1.23 | 0.85 | inactive
PSMB3 (proteasome 20S subunit beta 3) | 1 | -1.48 | -1.55 | -1.42 | -1.48 | inactive
NDUFA11 (NADH:ubiquinone oxidoreductase subunit A11) | 1 | -0.06 | 0.34 | -0.23 | -0.27 | inactive
NANOS3 (nanos C2HC-type zinc finger 3) | 1 | 0.35 | 0.56 | 0.17 | 0.31 | inactive
GYS1 (glycogen synthase 1) | 1 | -0.39 | -0.77 | -0.47 | 0.07 | inactive
SLC48A1 | 1 | 1.97 | 1.62 | 2.1 | 2.19 | inactive
TOMM20 (translocase of outer mitochondrial membrane 20) | 1 | 0.51 | 0.74 | 0.34 | 0.45 | inactive
DRC2 (dynein regulatory complex subunit 2) | 1 | -0.85 | -0.45 | -1.08 | -1.02 | inactive
KCNE3 | 1 | -0.6 | -0.78 | -0.66 | -0.36 | inactive
ZEB2 (zinc finger E-box binding homeobox 2) | 1 | -1.06 | -1.08 | -1.01 | -1.09 | inactive
DNALI1 (dynein axonemal light intermediate chain 1) | 1 | 0.7 | 0.94 | 0.68 | 0.48 | inactive
BOD1L2 (biorientation of chromosomes in cell division 1 like 2) | 1 | 0.36 | 0.3 | 0.27 | 0.53 | inactive
GLRX (glutaredoxin) | 1 | 0.69 | 0.59 | 0.95 | 0.55 | inactive
NR3C2 (nuclear receptor subfamily 3 group C member 2) | 1 | 0.55 | 0.49 | 0.7 | 0.46 | inactive
REC8 (REC8 meiotic cohesin complex component) | 1 | 0.87 | 0.78 | 0.86 | 0.98 | inactive
CEPT1 (choline/ethanolamine phosphotransferase 1) | 1 | -1.48 | -1.48 | -1.55 | -1.42 | inactive
MTMR9LP (myotubularin related protein 9 like, pseudogene) | 1 | 0.1 | 0.15 | -0.05 | 0.18 | inactive
ECE2 (endothelin converting enzyme 2) | 1 | 0.09 | 0.36 | 0.35 | -0.43 | inactive
ECE2 (endothelin converting enzyme 2) | 2 | -0.93 | -0.74 | -1.17 | -0.87 | inactive
